Results reported in publication PMC6042199, “Inhibitory effects against α-glucosidase and α-amylase of the flavonoids-rich extract from Scutellaria baicalensis shoots and interpretation of structure–activity relationship of its eight flavonoids by a refined assign-score method” (Chemistry Central Journal, 2018).

System: yeast α-glucosidase from Saccharomyces cerevisiae
Experiment: α-glucosidase inhibitory effect (pNPG, AUC of absorbance at 405 nm)
Format: biochemical
Conditions: Contribution = [Ei/E0] × C × 100
Description: All solvents (analytical grade) were bought from Beijing Chemical Factory, and purified water was from a mili-Q system (Millipore, Billerica, MA).
α-Glucosidase inhibitory effect was assayed as reported by Zhang et al.. […] Then, 30 μL pNPG solution (2 mM pNPG in 0.1 mM phosphate buffer) was added quickly to initiate the enzyme reaction. Absorbance was monitored at 405 nm every 15 min for 2 h using a microplate reader (Tecan infinite 200, Swiss).

Compound | Contribution to the overall enzyme inhibitory effect of the extract, α-glucosidase
O=C(O)[C@H]1O[C@@H](Oc2cc(O)c3c(=O)cc(-c4ccc(O)cc4)oc3c2)[C@H](O)[C@@H](O)[C@@H]1O [Apigenin-7-O-G, apigenin-7-O-glucuronide] | 2.77 ± 0.05%
O=c1cc(-c2ccc(O)cc2)oc2cc(O)cc(O)c12 [Apigenin] | 8.32 ± 0.56%
O=C(O)[C@H]1O[C@@H](Oc2cc3oc(-c4ccccc4)cc(=O)c3c(O)c2O)[C@H](O)[C@@H](O)[C@@H]1O [Baicalin, baicalin] | 4.65 ± 0.12%
O=c1cc(-c2ccccc2)oc2cc(O)cc(O)c12 [Chrysin, chrysin] | 6.20 ± 0.08%
O=C(O)[C@H]1O[C@@H](Oc2cc(O)c3c(=O)cc(-c4ccccc4)oc3c2)[C@H](O)[C@@H](O)[C@@H]1O [Chrysin-7-O-G, chrysin-7-O-glucuronide] | 1.01 ± 0.03%
